Measured values as given in patent publication US20050049242A1 (priority 2000, published 2005).

System: MT-2 cells
Conditions: 48 hours

## Di-3,4-dihydrodihydroxybenzylidine succinic acid [Compound 38]
  LD5 (5% lethal dose, concentration at which cell growth is inhibited by 5%): 69 µM
